Compound potency records, mixed from different reports. Data source: NIAID ChemDB in PubChem.

Shared fields: growth or infection tests; organism: Respiratory syncytial virus; endpoint: EC50

ECn: concentration that inhibits the pathogen or its effect by n%.

O=C(O)c1cccc(Cn2c(=O)n(Cc3nc4ccccc4n3CCCn3cnnn3)c3ccccc32)c1 ; strain: Long (subtype A) ; cell line: HEP-2 ; method: cytopathic effect ; value: 0.007 µM
CC(C)CCn1c(Cn2c(=O)n(Cc3ccc(C(=O)N[C@@H](CC(=O)O)C(=O)O)cc3)c3ccccc32)nc2ccccc21 ; value: <50 µM
NC(=O)c1ncn([C@@H]2O[C@H](CO)[C@@H](O)[C@H]2O)c1O ; strain: TYPE A/FM-58-8 ; cell line: HeLa ; method: plaque count ; value: 4.4 µg/mL
O=c1cc(-c2ccc(O)c(-c3c(O)cc4oc(-c5ccc(O)cc5)cc(=O)c4c3O)c2)oc2cc(O)cc(O)c12 ; strain: UTAH 89 ; cell line: MA-104 ; method: neutral red ; value: 50 µg/mL
NC(=O)c1[nH]nc([C@@H]2O[C@H](CO)[C@@H](O)[C@H]2O)c1O ; strain: 58-14 ; cell line: HeLa ; method: cytopathic effect ; value: 0.1 µg/mL
O=c1n(Cc2nc3ccccc3n2CCCCO)c2cnccc2n1C1CC1 ; strain: Clinical isolates ; value: 0.009–0.05 µM
Cc1cn([C@@H]2C[C@@H](O)[C@H](CO)O2)c(=O)[nH]c1=O ; strain: TYPE A ; cell line: MA-104 ; value: >100 µM
NC(=O)c1ncn([C@@H]2O[C@H](CO)[C@@H](O)[C@H]2O)n1 ; strain: 46 ; cell line: HEP-2 ; method: plaque count ; value: 4 µg/mL
c1ccc2c(c1)CSSC2 ; strain: clone 55 (RD3-0028-resistant) ; cell line: HeLa ; method: cytopathic effect ; value: >244.4 µM
O=C1CN(CCCn2c(Cn3c(=O)n(C4CC4)c4ccncc43)nc3ccccc32)C(=O)N1 ; value: <50 µM
C[C@H](Cn1cnc2c(N)ncnc21)OCP(=O)(O)O ; method: cytopathic effect ; value: >525 µM
NCCN1CCC(Nc2nc3ccccc3n2Cc2ccccn2)CC1 ; cell line: HELA/M ; method: MTT ; value: 0.398 µM
Cc1nnnn1/N=C/c1ccc(O)c(C(c2ccc(O)cc2)c2cc(/C=N/n3nnnc3C)ccc2O)c1 ; strain: A2 ; cell line: HEP-2 ; method: cell fusion ; value: 0.0054 µM
NC(=O)c1ncn([C@@H]2O[C@H](CO)[C@@H](O)[C@H]2O)n1 ; strain: LONG ; cell line: HEP-2 ; method: plaque count ; value: 11.1 µM
CC(C)CCn1c(Cn2c(=O)n(Cc3ccc(C(=O)O)cc3)c3ccccc32)nc2ccccc21 ; strain: Long (subtype A) ; cell line: HEP-2 ; method: cytopathic effect ; value: 0.01 µM
CCOC(c1ccccn1)n1c(NC2CCN(CCN)CC2)nc2ccccc21 ; cell line: HELA/M ; method: MTT ; value: 0.063 µM
Nc1ccn([C@@H]2C[C@@H](O)[C@H](CO)O2)c(=O)n1 ; strain: TYPE A ; cell line: MA-104 ; value: >100 µM
Nc1ncnc2c1ncn2CCOCP(=O)(O)O ; method: cytopathic effect ; value: >185 µM
O=c1cc(-c2ccc(Oc3c(O)cc4oc(-c5ccc(O)cc5)cc(=O)c4c3O)cc2)oc2cc(O)cc(O)c12 ; strain: UTAH 89 ; cell line: MA-104 ; method: cytopathic effect ; value: >3.2 µg/mL
Fc1ccc(Cn2cnnc2CN(CCc2ccc(Br)cc2)Cc2ccc3ccccc3n2)cc1 ; value: 0.08 µM
CC(C)CCn1c(Cn2c(=O)n(Cc3ccc(C(=O)N[C@@H](CC(=O)O)C(=O)O)cc3)c3ccccc32)nc2ccccc21 ; strain: Long (subtype A) ; cell line: HEP-2 ; method: cytopathic effect ; value: 0.01 µM
Nc1nc2c(ncn2COC2COP(=O)(O)OC2)c(=O)[nH]1 ; strain: LONG ; cell line: HeLa ; method: cytopathic effect ; value: >125 µg/mL
Nc1ccn([C@@H]2C[C@@H](O)[C@H](CO)O2)c(=O)n1 ; strain: TYPE A ; cell line: MA-104 ; value: >100 µM
Nc1ncnc2c1ccn2[C@@H]1O[C@H](CO)[C@@H](O)[C@H]1O ; strain: LONG ; cell line: HeLa ; method: cytopathic effect ; value: 1 µg/mL
Nc1ncnc2c1ncn2[C@@H]1C[C@@H](O)[C@H](CO)O1 ; strain: TYPE A ; cell line: MA-104 ; value: >100 µM
N#Cc1nc[nH]c1C(N)=O ; strain: LONG ; cell line: HeLa ; method: cytopathic effect ; value: >500 µg/mL
Nc1ncnc2c1ncn2C[C@@H](CO)OCP(=O)(O)O ; method: cytopathic effect ; value: >50 µM

3 of the rows above, restated:

{"compound": "NC(=O)c1ncn([C@@H]2O[C@H](CO)[C@@H](O)[C@H]2O)c1O", "strain": "TYPE A/FM-58-8", "cell line": "HeLa", "method": "plaque count", "value": "4.4 µg/mL"}
{"compound": "c1ccc2c(c1)CSSC2", "strain": "clone 55 (RD3-0028-resistant)", "cell line": "HeLa", "method": "cytopathic effect", "value": ">244.4 µM"}
{"compound": "O=C(O)c1cccc(Cn2c(=O)n(Cc3nc4ccccc4n3CCCn3cnnn3)c3ccccc32)c1", "strain": "Long (subtype A)", "cell line": "HEP-2", "method": "cytopathic effect", "value": "0.007 µM"}

Two numbers with a dash give a range or band. Neighbouring rows are from separate reports.